Pooled drug test results. Numbers come from NIAID ChemDB, via PubChem.

Shared fields: growth or infection tests; species: Hepatitis C virus; endpoint: inhibition

Blank or dashed fields: not listed here. Percent inhibition refers to the dose given; in toxicity tests it is the harm to the cells. Conditions beyond the fields shown may differ between rows.

SMILES,strain or isolate,tested at,changes,cells,method,setting,result
CCCN1CCC(C(=O)Nc2ccc(Oc3ccccc3F)cc2)CC1,JFH-1,5 µM,-,Huh7,PCR,-,≥40%
CC1(C)CC[C@]2(C(=O)O)CC[C@]3(C)C(=CC[C@@H]4[C@@]5(C)CC[C@H](O)C(C)(C)[C@@H]5CC[C@]43C)[C@@H]2C1,-,5 µM,-,Huh7,luciferase / entry,pseudotyped,23.6%
COc1cccc(-c2ccccc2NC(=O)C2CCN(Cc3nc(C)c(C)nc3C)CC2)c1,JFH-1,5 µM,-,Huh7,PCR,-,≥40%
CC1(C)CC[C@@]2(C(=O)NCc3cn(CCCn4cc(CNC(=O)[C@]56CCC(C)(C)CC5C5=CCC7[C@@]8(C)CC[C@H](O)C(C)(C)C8CC[C@@]7(C)[C@]5(C)C[C@H]6O)nn4)nn3)C(C1)C1=CCC3[C@@]4(C)CC[C@H](O)C(C)(C)C4CC[C@@]3(C)[C@]1(C)C[C@H]2O,-,5 µM,-,Huh7,luciferase / entry,-,89%
O=C(Nc1ccc(-c2nc3ccccc3[nH]2)cc1)C1CCN(Cc2cc3ccccc3[nH]2)CC1,JFH-1,15 µM,-,Huh7,PCR,-,<40%
O=C1N/C(=N\c2nnc(-c3ccc(Cl)cc3)s2)S/C1=C\c1ccc(Cl)cc1Cl,-,100 µM,-,Huh7.5-FGR-JC1-Rluc2A,MTS,-,0%
CC1(C)CC[C@@]2(C(=O)NCc3cn(CCO)nn3)C(C1)C1=CCC3[C@@]4(C)CC[C@H](O)C(C)(C)C4CC[C@@]3(C)[C@]1(C)C[C@H]2O,-,5 µM,-,Huh7,luciferase / entry,-,62.5%
COc1ccccc1CN1CCC(C(=O)Nc2ccc(C3N=C4C=CC=CC4N3)cc2)CC1,JFH-1,5 µM,-,Huh7,PCR,-,≥70%
COc1cc(C(c2cc(OC)c3c(c2)OCO3)[C@@H]2COC(=O)[C@@H]2C)cc2c1OCO2,Subgenomic replicon S52,50 µM,P1220S D1430H S2204I,Huh7.5,luciferase,-,88%
CC1(C)CC[C@@]2(C(=O)NCc3cn(-c4ccc(-n5cc(CNC(=O)[C@]67CCC(C)(C)CC6C6=CCC8[C@@]9(C)CC[C@H](O)C(C)(C)C9CC[C@@]8(C)[C@]6(C)C[C@H]7O)nn5)cc4)nn3)C(C1)C1=CCC3[C@@]4(C)CC[C@H](O)C(C)(C)C4CC[C@@]3(C)[C@]1(C)C[C@H]2O,-,5 µM,-,Huh7,luciferase / entry,-,78.1%
CC(=O)OC[C@]12[C@H](OC(C)=O)[C@H](OCc3ccccc3)[C@@H]3[C@@H](OC(C)=O)[C@@]14O[C@@]3(C)COC(=O)c1cccnc1C(C)C(C)C(=O)O[C@@H]([C@H](OC(C)=O)[C@@H]2OC(C)=O)[C@]4(C)O,Subgenomic replicon S52,50 µM,T1056A T1429I S2204I,Huh7.5,luciferase,-,78%
CC1(C)CC[C@@]2(C(=O)NCc3cn(CC(Cn4cc(CNC(=O)[C@]56CCC(C)(C)CC5C5=CCC7[C@@]8(C)CC[C@H](O)C(C)(C)C8CC[C@@]7(C)[C@]5(C)C[C@H]6O)nn4)(Cn4cc(CNC(=O)[C@]56CCC(C)(C)CC5C5=CCC7[C@@]8(C)CC[C@H](O)C(C)(C)C8CC[C@@]7(C)[C@]5(C)C[C@H]6O)nn4)Cn4cc[n+](CNC(=O)[C@]56CCC(C)(C)CC5C5=CCC7[C@@]8(C)CC[C@H](O)C(C)(C)C8CC[C@@]7(C)[C@]5(C)C[C@H]6O)n4)nn3)C(C1)C1=CCC3[C@@]4(C)CC[C@H](O)C(C)(C)C4CC[C@@]3(C)[C@]1(C)C[C@H]2O,-,5 µM,-,Huh7,luciferase / entry,-,58.4%
CC1(C)CC[C@]2(C(=O)O)[C@H](O)C[C@]3(C)C(=CC[C@@H]4[C@@]5(C)CC[C@H](O)C(C)(C)[C@@H]5CC[C@]43C)[C@@H]2C1,-,5 µM,-,Huh7,luciferase / entry,-,77.7%
C=CCn1cc(CN2CCC(C(=O)Nc3cccc(-c4cccc(F)c4)c3)CC2)c(C)n1,JFH-1,5 µM,-,Huh7,PCR,-,≥40%
CC1(C)CC[C@@]2(C(=O)NCc3cn(CC(Cn4cc(CNC(=O)[C@]56CCC(C)(C)CC5C5=CCC7[C@@]8(C)CC[C@H](O)C(C)(C)C8CC[C@@]7(C)[C@]5(C)C[C@H]6O)nn4)n4cc(CNC(=O)[C@]56CCC(C)(C)CC5C5=CCC7[C@@]8(C)CC[C@H](O)C(C)(C)C8CC[C@@]7(C)[C@]5(C)C[C@H]6O)nn4)nn3)C(C1)C1=CCC3[C@@]4(C)CC[C@H](O)C(C)(C)C4CC[C@@]3(C)[C@]1(C)C[C@H]2O,-,5 µM,-,Huh7,luciferase / entry,-,32.2%

Repeating the final 2 entries:

SMILES	strain or isolate	tested at	changes	cells	method	setting	result
C=CCn1cc(CN2CCC(C(=O)Nc3cccc(-c4cccc(F)c4)c3)CC2)c(C)n1	JFH-1	5 µM	-	Huh7	PCR	-	≥40%
CC1(C)CC[C@@]2(C(=O)NCc3cn(CC(Cn4cc(CNC(=O)[C@]56CCC(C)(C)CC5C5=CCC7[C@@]8(C)CC[C@H](O)C(C)(C)C8CC[C@@]7(C)[C@]5(C)C[C@H]6O)nn4)n4cc(CNC(=O)[C@]56CCC(C)(C)CC5C5=CCC7[C@@]8(C)CC[C@H](O)C(C)(C)C8CC[C@@]7(C)[C@]5(C)C[C@H]6O)nn4)nn3)C(C1)C1=CCC3[C@@]4(C)CC[C@H](O)C(C)(C)C4CC[C@@]3(C)[C@]1(C)C[C@H]2O	-	5 µM	-	Huh7	luciferase / entry	-	32.2%